Experiment: SAXS d-spacing of peptide-induced aggregates
Conditions: POPE/POPG; 4 h after lipid-peptide mixing, 37°C; [P]/[L] = 1:25, [P] ~ 1.1 mM

| Substance | final d-value (d-spacing, end-state) |
| --- | --- |
| H-PFFWRIRIRR-NH2 [LF11-324, H-PFFWRIRIRR-NH2] | 5.12 nm |
| H-FWRIRIRR-NH2 [LF11-215, H-FWRIRIRR-NH2] | 5.53 nm |

From PMC8757871, “Bridging the Antimicrobial Activity of Two Lactoferricin Derivatives in E. coli and Lipid-Only Membranes” (Frontiers in Medical Technology, 2021)
